# “And” between values parts separate entries of the source, which are not always exact repeats. Identical values can stand only once.
# B1: mAb10939 (antibody)
# heavy: EVQLVESGGGLVQPGGSLRLSCAASGLTVSSNYMNWVRQVPGKGLEWVSVIYSGGSKFYVDSVKGRFTISRHNSKNTLYLQMNSLRPEDTAVYYCTRDAQYYGMDVWGQGTTVTVSSASTKGPSVFPLAPSSKSTSGGTAALGCLVKDYFPEPVTVSWNSGALTSGVHTFPAVLQSSGLYSLSSVVTVPSSSLGTQTYICNVNHKPSNTKVDKKV[human IgG1 Fc left out here]
# light: DIQMTQSPSSLSASVGDRVTITCRASQSISTYLHWYQQKPGEAPKLLIYAASSLQSGVPSRFSGSGSGTDFTLTISSLQPEDFATYYCQQSYSTPPEIFGQGTKLEIKRTVAAPSVFIFPPSDEQLKSGTASVVCLLNNFYPREAKVQWKVDNALQSGNSQESVTEQDSKDSTYSLSSTLTLSKADYEKHKVYACEVTHQGLSSPVTKSFNRGEC
# Assays:
# Settings in all cases: remark: other sources report otherwise
# [1] = target: SARS-CoV-2 Spike Protein (RBD)([…]).mmH (SARS-CoV-2)
# [2] = target: SARS-COV-2-S RBD extracellular domain expressed with a C-terminal myc-myc-hexahistidine (SARS-COV-2 RBD-MMH) (SARS-CoV-2)
# [3] = target: Bt-SARS-CoV-2 Spike Protein (RBD)([…]).mFc (SARS-CoV-2); assay: Luminex bead assay, antibody supernatant, biotinylated antigen on microspheres
# [4] = target: Bt-SARS-CoV-2 Spike Protein (RBD)([…]).hFc (SARS-CoV-2); assay: as above
binder,measurement,setting,value
B1,Binding signal (MFI),[1],32200 MFI and 30900 MFI
same,t½,[2],1 min
same,Binding signal (MFI),[3],18700 MFI
same,Binding signal (MFI),[4],28900 MFI
